# Test results reported in US20230104311A1, “NOVEL 6-SUBSTITUTED 7-DEAZAPURINES AND CORRESPONDING NUCLEOSIDES AS MEDICAMENTS” (KATHOLIEKE UNIVERSITEIT LEUVEN, priority 2020, published 2023).
# System: human norovirus (HuNoV)
# Assay: Inhibition of in vitro replication of genogroup 1 NoV in HG23 NoV replicon cells (qRT-PCR of intracellular RNA)
# Format: cell-based
# Conditions: ratio CC50 / EC50
row,Structure (SMILES),SI50
1,"C[C@@]1(O)[C@H](O)[C@@H](CO)O[C@H]1n1ccc(N)nc1=O [2’Cmethyl Cytidine, 2′-C-Methyl-cytidine, reference compound]",>10
2,"Cc1ccc(-c2ncnc3c2ccn3[C@@H]2O[C@H](CO)[C@@H](O)[C@H]2O)cc1 [Compound 11a, 6-(4-Methylphenyl)-9-β-D-ribofuranosyl-7-deazapurine]",>5291
3,"Cc1ncnc2c1ccn2[C@@H]1O[C@H](CO)[C@@H](O)[C@H]1O [Compound 11b, 6-Methyl-9-β-D-ribofuranosyl-7-deazapurine]",46
4,"CC(C)c1ncnc2c1ccn2[C@@H]1O[C@H](CO)[C@@H](O)[C@H]1O [Compound 11c, 6-Isopropyl-9-β-D-ribofuranosyl-7-deazapurine]",>4120
5,"CCc1ncnc2c1ccn2[C@@H]1O[C@H](CO)[C@@H](O)[C@H]1O [Compound 11d, 6-Ethyl-9-β-D-ribofuranosyl-7-deazapurine]",438
6,"CCCc1ncnc2c1ccn2[C@@H]1O[C@H](CO)[C@@H](O)[C@H]1O [Compound 11e, 6-Propyl-9-β-D-ribofuranosyl-7-deazapurine]",>6274
7,"CCCCCc1ncnc2c1ccn2[C@@H]1O[C@H](CO)[C@@H](O)[C@H]1O [Compound 11f, 6-Pentyl-9-β-D-ribofuranosyl-7-deazapurine]",>119
8,"CCCCCCc1ncnc2c1ccn2[C@@H]1O[C@H](CO)[C@@H](O)[C@H]1O [Compound 11g, 6-Hexyl-9-β-D-ribofuranosyl-7-deazapurine]",479
9,"CC(C)Cc1ncnc2c1ccn2[C@@H]1O[C@H](CO)[C@@H](O)[C@H]1O [Compound 11i, 6-Isobutyl-9-β-D-ribofuranosyl-7-deazapurine]",>52632
10,"OC[C@H]1O[C@@H](n2ccc3c(C4CC4)ncnc32)[C@H](O)[C@@H]1O [Compound 11j, 6-Cycloproyl-9-β-D-ribofuranosyl-7-deazapurine]",>487
11,"OC[C@H]1O[C@@H](n2ccc3c(C4CCCC4)ncnc32)[C@H](O)[C@@H]1O [Compound 11k, 6-Cyclopentyl-9-β-D-ribofuranosyl-7-deazapurine]",1
12,"OC[C@H]1O[C@@H](n2ccc3c(C4CCCCC4)ncnc32)[C@H](O)[C@@H]1O [Compound 11l, 6-Cyclohexyl-9-β-D-ribofuranosyl-7-deazapurine]",235
13,"CC(C)c1ccc(-c2ncnc3c2ccn3[C@@H]2O[C@H](CO)[C@@H](O)[C@H]2O)cc1 [Compound 11m, 6-(4-isoproylphenyl)-9-β-D-ribofuranosyl-7-deazapurine]",>100000
14,"COc1ccc(-c2ncnc3c2ccn3[C@@H]2O[C@H](CO)[C@@H](O)[C@H]2O)cc1 [Compound 11n, 6-(4-Methoxylphenyl)-9-β-D-ribofuranosyl-7-desazapurine]",>1068
15,"OC[C@H]1O[C@@H](n2ccc3c(-c4ccccc4)ncnc32)[C@H](O)[C@@H]1O [Compound 11o, 6-Phenyl-9-β-D-ribofuranosyl-7-deazapurine]",>474
16,"CN(C)c1ccc(-c2ncnc3c2ccn3[C@@H]2O[C@H](CO)[C@@H](O)[C@H]2O)cc1 [Compound 11p, 6-(4-(Dimethylamino)phenyl)-9-β-D-ribofuranosyl-7-deazapurine]",>1
17,"CCc1ccc(-c2ncnc3c2ccn3[C@@H]2O[C@H](CO)[C@@H](O)[C@H]2O)cc1 [Compound 11q, 6-(4-Ethylphenyl)-9-β-D-ribofuranosyl-7-deazapurine]",>2
